Measurements reported in PubChem BioAssay AID1259414 (Drosophila RNAi Screening Center, 2018).
Aim: 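Host factors increasing or decreasing Wolbachia levels in cultured fly cells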 (primary screen). Cells: Drosophila JW18 cells infected with Wolbachia. Reagent: long dsRNA against Drosophila genes, 0.25 µg dsRNA per well of a 384-well plate. Time to read-out: 5 days. Challenge: cells persistently infected with Wolbachia before knock-down; no added drug. Detection: 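Automated imaging of bacterial rRNA staining divided by host cell count, reported as plate-normalised robust z-score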. Direction: Wolbachia per cell robust z: higher = more Wolbachia per host cell than the plate typical. Hit rule: 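Active if absolute robust z reaches 1.5 in two or more of three replicates, leaving out multi- or no-target dsRNAs, genes unexpressed in JW18 and A1 wells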.
In all, the deposit lists about 24,000 reagents; below is an unselected part of those that have a named target and a result. In the full data, about 1,210 (5%) were called active. 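Inactive calls also include excluded dsRNAs with several or no targets, genes unexpressed in JW18, and well A1, regardless of score.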 A number with no mark means an inactive call.

The opening 5 records, ahead of the listing:
gene knocked down | DRSC id | Wolbachia per cell robust z, rep 1 | Wolbachia per cell robust z, rep 2 | Wolbachia per cell robust z, rep 3
His4r | DRSC16703 | 5.05 (active) | 8.27 | 6.55
His4r | DRSC27569 | 0.485 | 0.145 | 0.17
Icmt | DRSC09834 | 0.265 | -0.061 | 0.578
eas | DRSC20329 | 0.847 | 1.28 | 1.09
eas | DRSC29435 | -0.928 | -0.162 | 0.784

The listing, repeating the preview:
gene knocked down | DRSC id | Wolbachia per cell robust z, rep 1 | Wolbachia per cell robust z, rep 2 | Wolbachia per cell robust z, rep 3
His4r | DRSC16703 | 5.05 (active) | 8.27 | 6.55
His4r | DRSC27569 | 0.485 | 0.145 | 0.17
Icmt | DRSC09834 | 0.265 | -0.061 | 0.578
eas | DRSC20329 | 0.847 | 1.28 | 1.09
eas | DRSC29435 | -0.928 | -0.162 | 0.784
Acat1 | DRSC17766 | -0.418 (active) | -9.83 | -3.53
Acat1 | DRSC28395 | -0.531 | 0.535 | -0.268
aft | DRSC07576 | 0.947 | -0.881 | 0.00316
CG9747 | DRSC16554 | 0.549 | 0.7 | -0.531
CG9747 | DRSC23910 | -0.269 | 3.13 | -0.663
CG5515 | DRSC15825 | 1.43 | 3.05 | 0.894
mah | DRSC14645 | -0.0695 | 0.652 | -0.649
mah | DRSC28300 | -0.0187 | 0.29 | 0.526
lbm | DRSC07643 | -0.131 | 1.31 | 2.47
Su(var)3-3 | DRSC10250 | -2.45 (active) | -2.43 | 0.385
Su(var)3-3 | DRSC24846 | -0.858 | -1.03 | -1.37
aurA | DRSC16905 | -0.412 | 0.777 | -3.81
aurA | DRSC27171 | 1.16 | 1.45 | 1.23
aurA | DRSC41549 | -2.03 (active) | -0.851 | -3.72
Pif2 | DRSC12525 | -1.68 | -0.949 | 0.515
Pif2 | DRSC26251 | -0.38 | 0.823 | 0.401
CG31473 | DRSC15443 | -0.574 | 0.675 | -0.392
CG31473 | DRSC29111 | 0.938 | 0.0466 | -0.944
CG1674 | DRSC17142 | 0.244 | 0.079 | 0.424
CG1674 | DRSC29516 | -0.192 | -5.35 | 0.958
PNUTS | DRSC00638 | -0.886 | 0.166 | -0.0944
PNUTS | DRSC23503 | 0.668 | -0.787 | 1.85
DCAF12 | DRSC15475 | -7.42 (active) | -2.85 | -1.35
Gpdh2 | DRSC04346 | -2.52 | -0.0765 | -6.32
CG9018 | DRSC08618 | 0.411 | -0.926 | 0.593
CG10864 | DRSC14273 | -1.82 | -0.143 | -0.261
CG6216 | DRSC10606 | -0.271 | 0.506 | 0.0257
CG6216 | DRSC28352 | -0.299 | 0.483 | 0.0908
CG4467 | DRSC15585 | -2.1 | 0.762 | 1.02
CG2246 | DRSC15433 | -1.6 | -1.09 | -0.77
CG11664 | DRSC18650 | 0.168 | -2.66 | 1.11
nab | DRSC08455 | 0.858 | 0.267 | 0.0881
nab | DRSC08456 | -7.46 | -2.14 | 1.34
CG6583 | DRSC02972 | -0.322 | -2.05 | -0.78
CG6583 | DRSC27517 | 1.83 | 1.15 | 0.857
Ggamma1 | DRSC07435 | 0.494 | -1.23 | 0.204
CG15594 | DRSC12280 | 0.323 | -1.13 | 0.42
Nprl3 | DRSC11044 | 0.275 | 0.966 | -0.844
vvl | DRSC11409 | -1.39 | -1.92 | -0.241
vvl | DRSC26681 | 0.916 | 1.49 | 0.403
vvl | DRSC41378 | 0.53 | -1.99 | -1.59
